Record: PubChem BioAssay AID624099 (ICCB-Longwood, 2012)

Test: 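Knock-downs relieving repression by E2 of an HPV18 LCR luciferase reporter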 (primary screen)
System: human C33A cervical carcinoma cells (HPV-negative) stably expressing BPV1 E2 and an HPV18 LCR luciferase reporter
Reagent: siRNA pool against human genes, 40 nM
Timing: 72 h
Measurement: 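HPV18 LCR reporter light per well, converted to plate-wise z-scores that exclude control wells, and averaged over triplicate plates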
Direction: mean z-score and z-score: higher = stronger reporter signal, weaker E2 silencing
Active means: 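Hit if mean z-score reaches 2 and two or more of three replicate z-scores also reach 2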
Shown is a random part of about 21,000 reagents. Of all reagents, 497 (2.4%) are marked active. 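Higher z means weaker E2 silencing; only reporter increases were scored, and knock-downs that hurt cell survival may mask genuine repressor factors.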 Unmarked entries are inactive.

TSEN2 (tRNA splicing endonuclease subunit 2)
- mean z-score: 0.09
- z-score, replicate A: -0.16
- z-score, replicate B: 0.16
- z-score, replicate C: 0.26

SLC12A4
- mean z-score: 0.43
- z-score, replicate A: 0.38
- z-score, replicate B: 0.45
- z-score, replicate C: 0.44

FBXO27 (F-box protein 27)
- mean z-score: -1.31
- z-score, replicate A: -1.52
- z-score, replicate B: -1.11
- z-score, replicate C: -1.28

ENOX2 (ecto-NOX disulfide-thiol exchanger 2)
- mean z-score: 0.82
- z-score, replicate A: 0.83
- z-score, replicate B: 0.83
- z-score, replicate C: 0.8

ZFAND6 (zinc finger AN1-type containing 6)
- mean z-score: 1.78
- z-score, replicate A: 1.83
- z-score, replicate B: 1.74
- z-score, replicate C: 1.78

TUBGCP6 (tubulin gamma complex component 6)
- mean z-score: -0.33
- z-score, replicate A: -0.29
- z-score, replicate B: -0.36
- z-score, replicate C: -0.34

ZCRB1 (zinc finger CCHC-type and RNA binding motif containing 1)
- mean z-score: 0.14
- z-score, replicate A: 0.03
- z-score, replicate B: 0.14
- z-score, replicate C: 0.27

AGAP1 (ArfGAP with GTPase domain, ankyrin repeat and PH domain 1)
- mean z-score: 0.35
- z-score, replicate A: 0.26
- z-score, replicate B: 0.2
- z-score, replicate C: 0.59

TNC (tenascin C)
- mean z-score: 0.41
- z-score, replicate A: 0.29
- z-score, replicate B: 0.46
- z-score, replicate C: 0.49

LOC402095 (retired record)
- mean z-score: -0.6
- z-score, replicate A: -0.53
- z-score, replicate B: -1.03
- z-score, replicate C: -0.24

RTP5 (receptor transporter protein 5 (putative))
- mean z-score: -0.08
- z-score, replicate A: -0.31
- z-score, replicate B: -0.09
- z-score, replicate C: 0.17

ADGRL2 (adhesion G protein-coupled receptor L2)
- mean z-score: 1.71
- z-score, replicate A: 2.03
- z-score, replicate B: 1.56
- z-score, replicate C: 1.54

SPINK13 (serine peptidase inhibitor Kazal type 13)
- mean z-score: -0.18
- z-score, replicate A: -0.04
- z-score, replicate B: -0.25
- z-score, replicate C: -0.24

GPD1 (glycerol-3-phosphate dehydrogenase 1)
- mean z-score: -0.11
- z-score, replicate A: 0
- z-score, replicate B: 0.03
- z-score, replicate C: -0.36

CLEC19A (C-type lectin domain containing 19A)
- mean z-score: 0.3
- z-score, replicate A: 0.58
- z-score, replicate B: 0.03
- z-score, replicate C: 0.29

DNAJB4 (DnaJ heat shock protein family (Hsp40) member B4)
- mean z-score: 0.4
- z-score, replicate A: 0.57
- z-score, replicate B: 0.27
- z-score, replicate C: 0.35

SPATA16 (spermatogenesis associated 16)
- mean z-score: 0.66
- z-score, replicate A: 0.6
- z-score, replicate B: 0.53
- z-score, replicate C: 0.86

C1QTNF4 (C1q and TNF related 4)
- mean z-score: 0.67
- z-score, replicate A: 0.8
- z-score, replicate B: 0.87
- z-score, replicate C: 0.32

LMCD1 (LIM and cysteine rich domains 1)
- mean z-score: -0.15
- z-score, replicate A: -0.26
- z-score, replicate B: -0.47
- z-score, replicate C: 0.29

APPBP2 (amyloid beta precursor protein binding protein 2)
- mean z-score: 0.12
- z-score, replicate A: 0.08
- z-score, replicate B: 0.1
- z-score, replicate C: 0.18

LOC284009
- mean z-score: -0.33
- z-score, replicate A: -1.17
- z-score, replicate B: 0.1
- z-score, replicate C: 0.07

2 entries from above, reformatted.
{"Gene": "ZFAND6 (zinc finger AN1-type containing 6)", "mean z-score": 1.78, "z-score, replicate A": 1.83, "z-score, replicate B": 1.74, "z-score, replicate C": 1.78}
{"Gene": "TUBGCP6 (tubulin gamma complex component 6)", "mean z-score": -0.33, "z-score, replicate A": -0.29, "z-score, replicate B": -0.36, "z-score, replicate C": -0.34}
